Potato spindle tuber viroid, loop 15: variant abundance in plants

The pool varies loop 15 of the PSTVd intermediate strain in the pattern GGAAACCGNNNNNNC; wild type is GGAAACCGCUACUAC (upper and lower strand joined, each 5' to 3', the first 7 letters being the upper strand, closing pairs included).

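A pool of all variants was put on leaves of three Nicotiana benthamiana plants. Samples came from the inoculated region at 5 days, the leaf margin at 10 and upper systemic leaves at 12.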

Values are reads per thousand in the sample; higher means more abundant, 0 means not found. Each value is the mean of three plants. "Pool" is the share in the plasmid pool used as inoculum, on the same scale. The inoculated region was read from the minus strand, the other sites from the plus strand. IR is the inoculated region, LM the leaf margin, Sys the systemic leaves. Sequences that differ at fixed positions probably stem from PCR or sequencing errors, and defective variants can be carried along by functional ones. Wild type was 33.9 per thousand in the pool and the most common sequence in every sample (inoculated region 202, 200, 159; leaf margin 724, 746, 710; systemic leaves 856, 883, 880). Samples held 43,870 to 66,106 reads, so the smallest values rest on one or two reads.

* GGAAACCGCAACCGC (pool 0.208): IR 0.0672; LM 0.0308; Sys 0.00760
* GGAAACCGUGACGAC (pool 0.240): IR 0.0524; LM 0.0254; Sys 0
* GGAAACCGCGAUAGC (pool 0.304): IR 0.185; LM 0; Sys 0
* GGAAACCGUAAAGCC (pool 0.304): IR 0.0947; LM 0.00668; Sys 0
* GGAAACCGAGAUGGC (pool 0.224): IR 0.100; LM 0.00668; Sys 0
* GGAAACCGUUGAGGC (pool 0.272): IR 0.0505; LM 0.0341; Sys 0
* GGAAACCGAAAUAGC (pool 0.176): IR 0.0849; LM 0; Sys 0
* GGAAACCGGGGCGAC (pool 0.272): IR 0.0894; LM 0.00668; Sys 0
* GGAAACCGACCCCGC (pool 0.272): IR 0.132; LM 0.00668; Sys 0.00537
* GGAAACCGACCUGAC (pool 0.272): IR 0.0803; LM 0; Sys 0
* GGAAACCGCCGGCUC (pool 0.208): IR 0.0848; LM 0.00742; Sys 0.00537
* GGAAACCGGCUCCUC (pool 0.224): IR 0.107; LM 0; Sys 0
* GGAAACCGCUCAGUC (pool 0.288): IR 0.0822; LM 0.0195; Sys 0.00537
* GGAAACCGAUAUGGC (pool 0.176): IR 0.0857; LM 0.0128; Sys 0
* GGAAACCGGACCUUC (pool 0.192): IR 0.0839; LM 0.00668; Sys 0
* GGAAACCGCCUGUAC (pool 0.256): IR 0.359; LM 0.152; Sys 0.0944
* GGAAACCGUAUGGUC (pool 0.240): IR 0.0732; LM 0.0121; Sys 0
* GGAAACCGUAUGAGC (pool 0.192): IR 0.0750; LM 0.0228; Sys 0
* GGAAACCGUUCUUUC (pool 0.224): IR 0.403; LM 0.145; Sys 0.0335
* GGAAACCGCUGGCCC (pool 0.256): IR 0.0850; LM 0.0108; Sys 0
* GGAAACCGGAUUCCC (pool 0.112): IR 0.107; LM 0.00668; Sys 0
* GGAAACCGAGGAUGC (pool 0.320): IR 0.0560; LM 0; Sys 0
* GGAAACCGGCACACC (pool 0.256): IR 0.0504; LM 0; Sys 0
* GGAAACCGCCGCGGC (pool 0.224): IR 0.144; LM 0; Sys 0.00537
* GGAAACCGCCUGGGC (pool 0.240): IR 0.186; LM 0.0195; Sys 0
* GGAAACCGGAUUUAC (pool 0.288): IR 0.157; LM 0; Sys 0
* GGAAACCGUUUACAC (pool 0.336): IR 0.102; LM 0.00539; Sys 0.00537
* GGAAACCGUAAUCUC (pool 0.224): IR 0.0783; LM 0.0108; Sys 0
* GGAAACCGGGAUCCC (pool 0.240): IR 0.0679; LM 0.0121; Sys 0
* GGAAACCGCAAUCGC (pool 0.144): IR 0.0750; LM 0; Sys 0
* GGAAACCGUACUCGC (pool 0.208): IR 0.105; LM 0.0134; Sys 0
* GGAAACCGCGCAGUC (pool 0.240): IR 0.103; LM 0.0269; Sys 0
* GGAAACCGCGAGUCC (pool 0.224): IR 0.353; LM 0.0711; Sys 0.0714
* GGAAACCGAGUUCUC (pool 0.240): IR 0.0342; LM 0; Sys 0
* GGAAACCGUUUCUAC (pool 0.224): IR 0.305; LM 0.121; Sys 0.0282
* GGAAACCGCUACGUC (pool 0.272): IR 0.140; LM 0.00742; Sys 0.00537
* GGAAACCGGAAUGAC (pool 0.224): IR 0.132; LM 0.00539; Sys 0.00537
* GGAAACCGCUGUGGC (pool 0.192): IR 0.119; LM 0.00539; Sys 0.0130

Reference: Wu et al. 2024, doi:10.1371/journal.ppat.1012142.